Laboratory results: paper PMC5206724, “Insensitivity to pain induced by a potent selective closed-state Nav1.7 inhibitor” (Scientific Reports, 2017)

Columns and labels:
human Nav1.5 (human) = human Nav1.5 (human) (UniProt Q14524)
human Nav1.7 (human) = human Nav1.7 (human) (UniProt Q15858)
human Nav1.6 (human) = human Nav1.6 (human) (UniProt Q9UQD0)
human Nav1.4 (human) = human Nav1.4 (human) (UniProt P35499)

Substance | pIC50 of inhibition of sodium current, automated patch clamp (QPatch) (human Nav1.5 (human)) | pIC50 of inhibition of the sodium channel (method not given) (human Nav1.7 (human)) | pIC50 of inhibition of the sodium channel (method not given) (human Nav1.6 (human)) | pIC50 of inhibition of the sodium channel (method not given) (human Nav1.4 (human))
JNJ63955918 (GP-ProTX-II W7Q, W30L) (from UniProt P83476 1-30) (peptide) | < 5.5 -log10(IC50) | – | – | –
ProTX-II W7Q, W30L lacking the extra GP residues (from UniProt P83476 1-30) (peptide) | – | 8 -log10(IC50) | 5.7 -log10(IC50) | 5.4 -log10(IC50)
